Experimental data: paper PMC5109037, “Harnessing Nature’s Diversity: Discovering organophosphate bioscavenger characteristics among low molecular weight proteins” (2016)

Assays:
Smu. 1393c [1] = biological target: T1, Smu. 1393c (Streptococcus mutans, UniProt Q8DTF4); assay: p-Nitrophenyl acetate hydrolysis followed by absorbance at 405 nm, Michaelis-Menten fit, no inhibitor.
[2] = biological target: Smu. 1393c expressed with zinc (Streptococcus mutans, UniProt Q8DTF4); details: read-out: Km (mM), Paraoxon
Smu. 1393c [3] = biological target: T1, Smu. 1393c; assay: Omethoate hydrolysis (0-18 mM) followed by Ellman assay in 50 mM bis-tris-propane pH 7.4 with 5 uM enzyme, Michaelis-Menten fit.; details: read-out: Km (mM), Omethoate

## CC(=O)Oc1ccc([N+](=O)[O-])cc1
Smu. 1393c [1]
  Km: 6.7 mM

## CCOP(=O)(OCC)Oc1ccc([N+](=O)[O-])cc1
[2]
  Km: 0.0055 mM

## CNC(=O)CSP(=O)(OC)OC
Smu. 1393c [3]
  Km: 2.6 mM
